Data as given in patent publication US20260248831A1, “NON-TUBERCULOSIS MYCOBACTERIA INFECTION TREATMENT” (AN2 Therapeutics, Inc., priority 2021, published 2026).

What was measured:
[1] = test system: M. avium 2285R; assay: Checkerboard antibacterial synergy testing of EBO pairwise combinations; format: cell-based; settings: in combination with EBO, Middlebrook 7H9+5% OADC
Procedure: (§1) Frozen stocks of the drugs were prepared at 5 or 2 mg/ml and frozen in aliquots at −20° C. On the day of the experiment the stocks were thawed and diluted to the appropriate concentration. Middlebrook 7H9 broth and agar, CA-MH agar and Middlebrook OADC were all purchased from Becton-Dickinson and Company (Sparks, MD).
(§2) M. avium 2285R (Verma et al. Microbiol (2019) 10: 693) and M intracellulare DNA000111 were obtained from Diane Ordway (Colorado State University, Fort Collins, CO). M. chimaera 20-S-05 and the macrolide/bedaquiline-resistant M. intracellulare 20-S-13 isolate were obtained from Barbara Brown-Elliott (Mycobacteria/Nocardia Research Laboratory, University of Texas Health Science Center, Tyler Tx). The strains M abscessus ATCC 19977, M. avium ATCC 700898 and M. peregrinum ATCC 700686 were obtained from the American Type Culture Collection (ATCC, Manassas, VA). Stocks of isolates were prepared and frozen at −80° C. Fresh cultures of each isolate (1-2 weeks) were grown on either 7H10 agar plus 5% OADC or CAMH agar plus 5% OADC for use in each experiment.
(§3) The checkerboard methodology was used to test for synergy and antagonism using Middlebrook 7H9+5% OADC (Dubos et al. Am Rev Tuberc (1947) 56:334-45) as the microbiology growth media. The first antibiotic of the combination, EBO, was serially diluted along the x-axis, whereas the second antibiotic was diluted along the y-axis. Synergistic or antagonistic activity was determined using the sum of the fractional inhibitory concentration (ΣFIC) index. The FTC index is calculated as the sum of FTC A+FTC B, where FTC A is the MIC of drug A in the combination of drugs A and B divided by the MIC of drug A alone, plus the MIC of drug B in the combination of drugs A and B divided by the MIC of drug B alone. A combination of drugs is considered synergistic when the FIC is ≤0.5, additive when the FTC is >0.5 to 1, indifferent when the FIC is >1 to 2, and antagonistic when the FTC is >2 (EUCAST. Clin. Microbiol. Infect. (2000) 6: 503-508).

[2] = test system: M. intracellulare 20-S-13; assay: as above; format: cell-based; settings: in combination with EBO, Middlebrook 7H9+5% OADC, M. intracellulare 20-S-13 (macrolide/bedaquiline-resistant)
Procedure: as §1, §2, §3

SMILES	Summary Activity of EBO Drug Combinations (ΣFIC index class) [1]	Summary Activity of EBO Drug Combinations (ΣFIC index class) [2]
NCC[C@H](O)C(=O)N[C@@H]1C[C@H](N)[C@@H](O[C@H]2O[C@H](CN)[C@@H](O)[C@H](O)[C@H]2O)[C@H](O)[C@H]1O[C@H]1O[C@H](CO)[C@@H](O)[C@H](N)[C@H]1O [AMK, Amikacin]	I (I = Indifferent)	I (I = Indifferent)
CC[C@H]1OC(=O)[C@H](C)[C@@H](O[C@H]2C[C@@](C)(OC)[C@@H](O)[C@H](C)O2)[C@H](C)[C@@H](O[C@@H]2O[C@H](C)C[C@H](N(C)C)[C@H]2O)[C@](C)(OC)C[C@@H](C)C(=O)[C@H](C)[C@@H](O)[C@]1(C)O [CLR, Clarithromycin]	A (A = Additive)	–
